Target: VhGlcNAcase (Vibrio harveyi, UniProt D9ISE0)
Conditions: 1 M

Chains of the proteins cited; added tags and fusions are not shown. Residues count along the entry.
UniProt D9ISE0, 1-642 limits assumed: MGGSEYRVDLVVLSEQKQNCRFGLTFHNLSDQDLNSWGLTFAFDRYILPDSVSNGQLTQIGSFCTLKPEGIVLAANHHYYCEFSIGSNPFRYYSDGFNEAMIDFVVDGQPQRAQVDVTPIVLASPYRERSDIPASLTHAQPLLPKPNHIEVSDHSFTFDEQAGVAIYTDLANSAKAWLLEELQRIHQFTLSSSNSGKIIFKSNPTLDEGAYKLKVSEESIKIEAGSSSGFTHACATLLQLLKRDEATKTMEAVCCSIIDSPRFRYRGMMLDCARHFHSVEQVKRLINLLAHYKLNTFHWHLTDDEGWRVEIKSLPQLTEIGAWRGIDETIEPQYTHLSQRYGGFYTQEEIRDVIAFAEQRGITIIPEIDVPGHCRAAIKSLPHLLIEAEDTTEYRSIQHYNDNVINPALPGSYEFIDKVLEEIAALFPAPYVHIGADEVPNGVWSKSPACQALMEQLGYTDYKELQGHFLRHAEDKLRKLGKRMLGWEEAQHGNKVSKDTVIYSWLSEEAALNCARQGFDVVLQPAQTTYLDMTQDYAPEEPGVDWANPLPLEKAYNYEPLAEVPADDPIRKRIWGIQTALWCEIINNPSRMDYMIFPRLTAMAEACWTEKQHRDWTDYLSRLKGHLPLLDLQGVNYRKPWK

With `[N-]=[N+]=N` as the molecule, how does the activity read?
The activity was 5%.
